Publication PMC9951844 (Nature Communications, 2023)

B1: YB9-258 (antibody, V domains shown)
VH: EVQLVESGGGLIQPGGSLRLSCAASGLTVSSNYMHWVRQAPGKGLEWVSVLYAGGSAFYADSVKGRFTISRNNSKNTLYLQMNSLRAEDTAIYYCARGLGDYLDSWGQGTLVTVSS
VL: DIQMTQSPSSVSASVGDRVTITCRASQGIGSWLAWYQQKPGKAPQLLIYAASTLQSGVPPRFSGSGSGTDFTLTITSLQPEDFASYYCQQANSVLALTFGGGTKVEIK
B2: YB13-292 (antibody, V domains shown)
VH: EVQLVESGGGLVKPGGSLRLSCAASGFSFITYNMNWVRQAPGKGLEWVSSISSNILSSTSYIYYADSVKGRFTISRDDAANSLFLQMNSLRVEDTAQYYCARTRSRSVRNCTSATCPVDAFDLWGQGTMVIVSS
VL: DIVLTQSPLSLPVTPGEPASISCRSSQSLLRSNGYNYLDWYLQKPGQSPHLLIYLGSNRASGVPDRFSGSGSGTDFTLKISRVEAEDVGVYYCMQALQTPYTFGQGTNLEIK

Columns and labels:
Assay in all cases: cell-based or functional assay
SARS-CoV-2 wildtype S1 = SARS-CoV-2 wildtype S1 (SARS-CoV-2 wildtype (Wuhan), UniProt P0DTC2)
[1] = biological target: SARS-CoV-2 Delta (B.1.617.2) S1 (SARS-CoV-2 Delta (B.1.617.2), strain)
[2] = biological target: SARS-CoV-2 Beta (B.1.351) S1 (SARS-CoV-2 Beta (B.1.351), strain)

Binder	Pseudovirus Variants (μg/mL), WT, IC50 (neutralisation on 293T-hACE2 cells) (SARS-CoV-2 wildtype S1) [µg/mL]	Authentic Virus (μg/mL), IC50, Delta (cytopathic effect on Vero-E6 cells) [1] [µg/mL]	Pseudovirus Variants (μg/mL), Delta, IC50 (neutralisation on 293T-hACE2 cells) [1] [µg/mL]	Pseudovirus Variants (μg/mL), Beta, IC50 (neutralisation on 293T-hACE2 cells) [2] [µg/mL]
B1	0.238	0.0274	0.02	–
B2	–	< 0.004	0.02	0.009
